{"source": "paper PMC10128069", "about": "“A Fijivirus Major Viroplasm Protein Shows RNA-Stimulated ATPase Activity by Adopting Pentameric and Hexameric Assemblies of Dimers” (mBio, 2023)", "biological_target": "P9-1 (Mal de Rio Cuarto virus (MRCV)) (UniProt D9U542)", "experiment": "EMSA", "conditions": "6.5 uM protein, 250 uM RNA, no extra-retarded pattern as seen with long RNA; 10 mM Tris-HCl, 50 mM KCl, 0.5 mM EDTA, 10% glycerol, 1 mM DTT, pH 7.5; 30 min at room temperature; 6.5% native PAGE at 4 C; recombinant protein; residues 1-337; protein details: N-terminal 52-residue tag (6xHis/Xpress/EK); label: 5'-Cy5", "note": "The exact form of at least one protein or probe is not confirmed. At least one verdict was read from the data and is not stated in words by the source."}
{"sequence": "CAUCAUGCAGGACAGUCGGAUCGCAGUCAG [30-nt Cy5-ssRNA]", "values": [{"measurement": "binding result", "value": "binds"}]}
